Sequence variants of PSTVd stem 15 after infection

PSTVd intermediate strain, stem 15: wild type CUGGAGCGAUCGCUUCGG, pool pattern CUGGAGCGAUNGNNUNNG; upper and lower strand joined, each 5' to 3', the first 9 letters being the upper strand.

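A pool of all variants was put on leaves of three Nicotiana benthamiana plants. Progeny were sequenced from the inoculated region (day 5), the margin of the inoculated leaf (day 10) and systemic leaves (day 12).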

Numbers give reads per thousand; 0 = not seen among the reads, higher = more abundant. Each site shows the three plants. "Pool" is the share in the plasmid pool used as inoculum, on the same scale. The inoculated region was read from the minus strand, the other sites from the plus strand. Samples held 36,693 to 63,082 reads, so the smallest values rest on one or two reads. The authors trace changes outside the varied positions to PCR and sequencing errors or to mutation in the plant; presence does not show that a variant is infectious alone. For reference, wild type rose from 10.2 per thousand in the pool to 285, 367, 312 (inoculated region), 785, 865, 782 (leaf margin) and 854, 898, 915 (systemic leaves).

sequence | pool | inoculated region | leaf margin | systemic leaves
CUGGAGCGAUGGCAUUAG | 0.937 | 0.215 / 0.230 / 0.335 | 0 / 0.109 / 0.0476 | 0 / 0 / 0
CUGGAGCGAUGGCAUUCG | 0.824 | 0.215 / 0.440 / 0.316 | 0.0414 / 0.0273 / 0.0317 | 0 / 0 / 0
CUGGAGCGAUGGCAUUGG | 1.02 | 0.509 / 0.335 / 0.465 | 0 / 0 / 0.0317 | 0 / 0 / 0
CUGGAGCGAUGGCAUUUG | 0.808 | 0.254 / 0.251 / 0.279 | 0.0827 / 0.0273 / 0.0159 | 0 / 0 / 0
CUGGAGCGAUGGCCUAAG | 0.937 | 0.176 / 0.272 / 0.298 | 0 / 0 / 0 | 0 / 0 / 0
CUGGAGCGAUGGCCUACG | 0.792 | 0.333 / 0.272 / 0.372 | 0.0414 / 0.136 / 0.0317 | 0 / 0 / 0
CUGGAGCGAUGGCCUAGG | 1.96 | 0.626 / 1.26 / 1.36 | 0.0620 / 0.0545 / 0 | 0 / 0.0886 / 0.0199
CUGGAGCGAUGGCCUAUG | 0.840 | 0.313 / 0.272 / 0.298 | 0.0207 / 0.0273 / 0.0317 | 0 / 0.0222 / 0
CUGGAGCGAUGGCCUCAG | 0.663 | 0.215 / 0.251 / 0.298 | 0.0207 / 0.0273 / 0.0317 | 0 / 0 / 0
CUGGAGCGAUGGCCUCCG | 0.760 | 0.430 / 0.335 / 0.279 | 0.145 / 0.0273 / 0.0317 | 0 / 0 / 0
CUGGAGCGAUGGCCUCGG | 0.986 | 0.196 / 0.209 / 0.372 | 0 / 0.0545 / 0.0476 | 0 / 0 / 0
CUGGAGCGAUGGCCUCUG | 0.937 | 0.196 / 0.168 / 0.242 | 0.0207 / 0.0273 / 0.0159 | 0 / 0 / 0
CUGGAGCGAUGGCCUGAG | 0.954 | 0.352 / 0.230 / 0.428 | 0 / 0 / 0.0317 | 0 / 0 / 0
CUGGAGCGAUGGCCUGCG | 0.889 | 0.196 / 0.293 / 0.279 | 0.103 / 0.0273 / 0.0159 | 0 / 0 / 0
CUGGAGCGAUGGCCUGGG | 0.808 | 0.313 / 0.230 / 0.298 | 0.0207 / 0.0273 / 0 | 0 / 0 / 0
CUGGAGCGAUGGCCUGUG | 0.873 | 0.196 / 0.230 / 0.335 | 0.0414 / 0.0273 / 0.0159 | 0 / 0 / 0
CUGGAGCGAUGGCCUUAG | 0.905 | 3.62 / 1.97 / 1.58 | 0.558 / 0 / 0.935 | 0.772 / 0 / 0
CUGGAGCGAUGGCCUUCG | 0.840 | 0.274 / 0.356 / 0.298 | 0 / 0 / 0.0159 | 0 / 0 / 0
CUGGAGCGAUGGCCUUGG | 0.986 | 0.274 / 0.377 / 0.354 | 0 / 0 / 0 | 0 / 0 / 0
CUGGAGCGAUGGCCUUUG | 0.889 | 0.352 / 0.251 / 0.242 | 0.0414 / 0 / 0.0159 | 0 / 0 / 0
CUGGAGCGAUGGCGUAAG | 1.08 | 0.235 / 0.230 / 0.223 | 0.0414 / 0 / 0.0317 | 0 / 0 / 0
CUGGAGCGAUGGCGUACG | 0.824 | 0.215 / 0.293 / 0.261 | 0.124 / 0.0545 / 0.0317 | 0 / 0 / 0
CUGGAGCGAUGGCGUAGG | 0.840 | 0.235 / 0.209 / 0.354 | 0.165 / 0.0545 / 0.0317 | 0 / 0 / 0
CUGGAGCGAUGGCGUAUG | 0.905 | 0.254 / 0.272 / 0.316 | 0.0414 / 0.0545 / 0.0159 | 0 / 0 / 0
CUGGAGCGAUGGCGUCAG | 0.727 | 0.313 / 0.377 / 0.316 | 0.0827 / 0.0818 / 0.0317 | 0 / 0 / 0
CUGGAGCGAUGGCGUCCG | 0.776 | 0.294 / 0.230 / 0.242 | 0.103 / 0 / 0.0159 | 0 / 0 / 0
CUGGAGCGAUGGCGUCGG | 0.614 | 0.294 / 0.335 / 0.354 | 0.103 / 0.0273 / 0.0476 | 0 / 0 / 0
CUGGAGCGAUGGCGUCUG | 0.727 | 0.313 / 0.356 / 0.409 | 0.0414 / 0.0545 / 0.0159 | 0 / 0 / 0
CUGGAGCGAUGGCGUGAG | 1.03 | 0.215 / 0.272 / 0.205 | 0.0207 / 0.0273 / 0.0159 | 0 / 0 / 0
CUGGAGCGAUGGCGUGCG | 0.776 | 0.176 / 0.147 / 0.335 | 0.0414 / 0.109 / 0 | 0 / 0 / 0
CUGGAGCGAUGGCGUGGG | 0.954 | 0.430 / 0.105 / 0.242 | 0.0620 / 0.0545 / 0.0159 | 0 / 0 / 0
CUGGAGCGAUGGCGUGUG | 0.857 | 0.294 / 0.314 / 0.261 | 0.0414 / 0.0273 / 0.0634 | 0 / 0 / 0
CUGGAGCGAUGGCGUUAG | 1.00 | 0.235 / 1.09 / 0.316 | 0.0207 / 0.0818 / 0.0159 | 0 / 0 / 0
CUGGAGCGAUGGCGUUCG | 0.679 | 0.215 / 0.209 / 0.316 | 0.0827 / 0.0545 / 0.0476 | 0 / 0 / 0
CUGGAGCGAUGGCGUUGG | 0.808 | 0.274 / 0.147 / 0.484 | 0.124 / 0.0273 / 0.0476 | 0 / 0 / 0
CUGGAGCGAUGGCGUUUG | 0.776 | 0.196 / 0.230 / 0.298 | 0.0620 / 0.0273 / 0.0317 | 0 / 0 / 0
CUGGAGCGAUGGCUUAAG | 0.760 | 0.235 / 0.251 / 0.186 | 0.0827 / 0.0545 / 0.0159 | 0 / 0 / 0
CUGGAGCGAUGGCUUACG | 0.646 | 0.313 / 0.356 / 0.354 | 0.0414 / 0.0545 / 0 | 0 / 0 / 0
CUGGAGCGAUGGCUUAGG | 1.18 | 0.254 / 0.272 / 0.354 | 0.0620 / 0 / 0.0159 | 0 / 0 / 0
CUGGAGCGAUGGCUUAUG | 1.07 | 0.235 / 0.272 / 0.261 | 0.0620 / 0 / 0.0317 | 0 / 0 / 0
CUGGAGCGAUGGCUUCAG | 1.15 | 0.450 / 0.293 / 0.186 | 0.0827 / 0.0545 / 0.0476 | 0 / 0 / 0
CUGGAGCGAUGGCUUCCG | 0.970 | 0.294 / 0.251 / 0.316 | 0.103 / 0 / 0.0317 | 0 / 0 / 0
CUGGAGCGAUGGCUUCGG | 0.986 | 0.313 / 0.314 / 0.316 | 0.289 / 0.0545 / 0.0476 | 0 / 0.0222 / 0.0797
CUGGAGCGAUGGCUUCUG | 1.00 | 0.333 / 0.251 / 0.391 | 0.0620 / 0.0545 / 0 | 0 / 0 / 0
CUGGAGCGAUGGCUUGAG | 1.07 | 0.176 / 0.209 / 0.335 | 0.0207 / 0.0545 / 0.0159 | 0 / 0 / 0
CUGGAGCGAUGGCUUGCG | 0.727 | 0.333 / 0.230 / 0.186 | 0.0620 / 0 / 0.0159 | 0 / 0 / 0
CUGGAGCGAUGGCUUGGG | 0.986 | 0.215 / 0.314 / 0.335 | 0.0414 / 0.0818 / 0 | 0 / 0 / 0
CUGGAGCGAUGGCUUGUG | 0.986 | 0.313 / 0.356 / 0.279 | 0.0414 / 0.0818 / 0.0159 | 0 / 0 / 0
CUGGAGCGAUGGCUUUAG | 1.07 | 0.352 / 1.17 / 0.223 | 0.0414 / 0.0545 / 0 | 0 / 0 / 0
CUGGAGCGAUGGCUUUCG | 1.05 | 0.352 / 0.314 / 0.447 | 0.103 / 0 / 0.0159 | 0 / 0 / 0
CUGGAGCGAUGGCUUUGG | 0.679 | 0.313 / 0.188 / 0.242 | 0.103 / 0.0273 / 0 | 0 / 0 / 0
CUGGAGCGAUGGCUUUUG | 1.07 | 0.274 / 0.188 / 0.484 | 0.103 / 0.0273 / 0 | 0 / 0 / 0
CUGGAGCGAUGGGAUAAG | 0.857 | 0.215 / 0.209 / 0.261 | 0 / 0 / 0.0317 | 0 / 0 / 0
CUGGAGCGAUGGGAUACG | 0.889 | 0.274 / 0.168 / 0.298 | 0.0620 / 0.0273 / 0.0159 | 0 / 0 / 0
CUGGAGCGAUGGGAUAGG | 0.970 | 0.196 / 0.251 / 0.205 | 0.0827 / 0.0273 / 0.0317 | 0 / 0 / 0
CUGGAGCGAUGGGAUAUG | 0.970 | 0.352 / 0.314 / 0.428 | 0.124 / 0.0545 / 0 | 0 / 0 / 0
CUGGAGCGAUGGGAUCAG | 0.937 | 0.274 / 0.126 / 0.205 | 0.0827 / 0.0273 / 0 | 0 / 0 / 0
CUGGAGCGAUGGGAUCCG | 1.10 | 0.313 / 0.209 / 0.335 | 0 / 0.0818 / 0.0317 | 0 / 0 / 0
CUGGAGCGAUGGGAUCGG | 0.711 | 0.313 / 0.272 / 0.186 | 0 / 0 / 0 | 0 / 0 / 0
CUGGAGCGAUGGGAUCUG | 0.937 | 0.215 / 0.251 / 0.316 | 0.124 / 0.0273 / 0.0317 | 0 / 0 / 0
CUGGAGCGAUGGGAUGAG | 1.07 | 0.294 / 0.356 / 0.391 | 0 / 0 / 0 | 0 / 0 / 0
CUGGAGCGAUGGGAUGCG | 0.776 | 0.215 / 0.209 / 0.409 | 0.103 / 0.0273 / 0 | 0 / 0 / 0
CUGGAGCGAUGGGAUGGG | 0.646 | 0.176 / 0.251 / 0.428 | 0.145 / 0.0273 / 0.0159 | 0 / 0 / 0
CUGGAGCGAUGGGAUGUG | 0.824 | 0.137 / 0.230 / 0.279 | 0.0827 / 0 / 0 | 0 / 0 / 0
CUGGAGCGAUGGGAUUAG | 0.970 | 0.254 / 0.230 / 0.354 | 0.0414 / 0.0273 / 0.0317 | 0 / 0 / 0
CUGGAGCGAUGGGAUUCG | 0.921 | 0.352 / 0.293 / 0.372 | 0 / 0 / 0.0159 | 0 / 0 / 0
CUGGAGCGAUGGGAUUGG | 0.840 | 0.235 / 0.272 / 0.242 | 0.0414 / 0.0545 / 0 | 0 / 0 / 0

The first 4 entries again:

| sequence | pool | inoculated region | leaf margin | systemic leaves |
|---|---|---|---|---|
| CUGGAGCGAUGGCAUUAG | 0.937 | 0.215 / 0.230 / 0.335 | 0 / 0.109 / 0.0476 | 0 / 0 / 0 |
| CUGGAGCGAUGGCAUUCG | 0.824 | 0.215 / 0.440 / 0.316 | 0.0414 / 0.0273 / 0.0317 | 0 / 0 / 0 |
| CUGGAGCGAUGGCAUUGG | 1.02 | 0.509 / 0.335 / 0.465 | 0 / 0 / 0.0317 | 0 / 0 / 0 |
| CUGGAGCGAUGGCAUUUG | 0.808 | 0.254 / 0.251 / 0.279 | 0.0827 / 0.0273 / 0.0159 | 0 / 0 / 0 |

Reference: Wu et al. 2024, doi:10.1371/journal.ppat.1012142.